From patent US6699656B2, “Treatment and prevention of HIV infection by administration of derivatives of human chorionic gonadotropin” (University of Maryland Biotechnology Institute, priority 1996, dated 2004)

Test system: HIV-1 LTR
Assay: HIV-1 LTR driven CAT reporter expression in HUT 78
Format: cell-based
Settings: not shown

hCG: human chorionic gonadotropin preparation, brand not stated at the place (or both Pregnyl and APL, 'PA')
response of constructs with point mutations in the enhancer (NFkB), SP-1 and TAR regions: essentially the same response
